Our source for the IC50 and EC50 values is patent US20250066456A1 (NOVAVAX, published 2025).

For assay [1], the target named is BA.2.75.2 CoV S glycoprotein (recombinant). As to the kind of experiment: hACE2 receptor inhibition ELISA on coated rS; competitor hACE2-His. On the technique in general: ELISA stands for enzyme-linked immunosorbent assay.
In assay [2] the target is BQ.1 CoV S glycoprotein (recombinant). Described as above.
The target of assay [3] is BA.2.75.2 CoV S glycoprotein (recombinant). As to the kind of experiment: ELISA on coated rS.
Assay [4] shares this target. As to the kind of experiment: ELISA on coated rS. The source holds these as a separate data set.
Assay [5] shares this target. As to the kind of experiment: hACE2 receptor inhibition ELISA on coated rS; competitor hACE2-His. The source holds these as a separate data set.
In assay [6] the target is Kappa B.1.617.1 CoV S glycoprotein (recombinant). The assay is described as above.

Where two headings read alike, the source gives them in different places.

B1: 35.13 (antibody, V domains shown)
VH: QVQLQQSGAELGKPGASVKLSCRASGYTFTRYYIYWVKQRPGQGLEWIGEINPSNGDTHFNEKFKTKATLTVDKSSSSAHIHLTSLTSEDSAVYYCSIHAYSFDFWGQGTTLTVSS
VL: EIQMTQSPSSMSASLGDRITITCQATQDIVKNLNWYQQKPGKPPSFLIYHATELAKGVPSRFSGSGSGSDYSLTISNLESEDFADYYCLQFYDFPFTFGAGTKLELKR
In general, IC50 refers to the midpoint of a concentration-inhibition curve. Turning to B1, the IC50 in assay [1] and in assay [2] was over 3 µg/mL each time.

B2: 322.3 (antibody, V domains shown)
VH: RVQLQQSGPELVKPGASVTISCKASGYIFTSDYIHWVKQRPGQGPEWIGWIYPGNINTKYNEKFKGKATLTADKSSSTAYMQLSSLTSEDSAVYFCARDDGNLYYYAMDYWGQGTSVTVSS
VL: NIVLTQSPASLAVSLGQRATISCRASESVDSYGSSFMHWYQQKPGQPPKLLIYLASNLESGVPARFSGSGSRTDFTLTIDPVEADDAATYYCQQNNEDPRTFGGGTKLEIK
For orientation: EC50 means the concentration needed to bring the measured effect to its halfway point. Consider B2, for which the results for the IC50 in assay [1] and in assay [2] were 0.184 µg/mL and 0.656 µg/mL, respectively. The EC50 in assay [3] stood at 0.024 µg/mL.

B3: 199.9 (antibody, V domains shown)
VH: LVQLQQPGAELVKPGASVKLSCKASGYTFTSYFMYWVRQRPGQGLEWIGEINPSNGGNDFNEKFKSKATLTVDKSSSTAYMQLSSLTSEDSAVYYCTRSGDYGYDGFAYWGQGTLVTVSA
VL: NIVLTQSPASLAVSLGQRATISCRASESVDTYGNSFMHWYQQKPGQPPKLLIYLASNLESGVPARFSGSGSRTDFTLTIDPVEADDAATYYCQQNNEDPLTFGAGTKLELK
As for B3, the EC50 in assay [4] was determined as 0.001 µg/mL. Moreover, in assay [5], the IC50 was 0.648 µg/mL.

B4: 425.6 (antibody, V domains shown)
VH: VQLKQSGPSLVQPSQSLSITCTVSGFSLTSYGIHWVRQSPGKGLEWLGVIWRGGSTDYNAAFMSRLTITKDNSKSQVFFKMNSLQADDTAIYYCATHTEGDDVDYWGQGTSVTVSS
VL: QIVLTQSPAIMSVSPGEKVTMTCSASSTMSFMYWYQQKPGSSPRLLIYDTSNLASGVPVRFSGSGSGTSYSLTISRVEAEDAATYYCQQWNTYPLTFGAGTKLELKR
With B4, the IC50 was over 3 µg/mL in assay [1], over 3 µg/mL in assay [2] and 0.043 µg/mL in assay [6].

B5: 239.12 (antibody, V domains shown)
VH: EVKLEESGPVLVKPSQSLSLTCTVTGYSITSDYAWNWIRQFPGNKLEWMGYISNSAGTSYNPSLKSRISITRDTSKNQFFLQLNSVTTEDTATYYCASGGWSSYYAMDYWGQGTSVTVSS
VL: DIQMTQSPASLSASVGETVTITCGASENIYGALNWYQRKQGKSPQLLIYGATNLADGMSSRFSGSGSGRQYSLKISSLHPDDVATYYCQNVLSTPYTFGGGTKLEIKR
On to B5, for which the IC50 in assay [1] and in assay [2] was over 3 µg/mL in each case.
